The subject of the series is Septoria tritici. Briefly: Field Trial 2: efficacy against Septoria tritici on winter wheat (Limburgerhof). The class given is in vivo, Septoria tritici on winter wheat (cv. Riband). To be noted: after the treatments, 200 g a.i./ha. As for the experimental part: Compound I-6 was used as 50 g/l EC formulation. Pyraclostrobin was used as commercial product HEADLINE.
This trial was conducted under field conditions in Limburgerhof, Rhineland-Palatinate, Germany. Seeds of winter wheat (cv. Riband) were planted and grown under standard conditions with adequate supply of water and nutrients. At growing stage GS 33 (Apr. 8, 2011), a first compound treatment (200 g a.i per ha) was made with a water volume of 400 L/ha, which was repeated 26 days later at growing stage GS 39. No further fungicide treatments were applied. Infection with fungal pathogens (e.g. Septoria tritici) occurred naturally. The evaluation of the disease incidences for Septoria tritici 19 and 34 days after the last treatment (DAA) are shown in Table IV. In the last row, the evaluation of the percentage of Qo inhibitor-resistant Septoria tritici isolates with the G143A mutation after the treatments is given.

As to `COC(=O)N(OC)c1ccccc1COc1ccn(-c2ccc(Cl)cc2)n1` [Pyraclostrobin, reference compound], the “Percentage of G143A mutation (%) in Septoria tritici isolates” value is 100%. In the case of `CNC(=O)C(=N/OC)/C(C)=C\COc1ccn(-c2ccc(Cl)cc2)n1` [Compound I-6, (Z)-5-[1-(4-Chloro-phenyl)-1H-pyrazol-3-yloxy]-2-[(E)-methoxyimino]-3-methyl-pent-3-enic acid methyl amide] it was 99%.

The record behind these values is patent US10080365B2, “Use of strobilurin type compounds for combating phytopathogenic fungi resistant to Qo inhibitors” (BASF SE, priority 2011, dated 2018).
